Earlier results as cited in publication PMC9452303, “Archaic chaperone–usher pili self-secrete into superelastic zigzag springs” (2022).

Molecular target: Caf1A NTD (Yersinia pestis) (UniProt P26949)
Details: cited from earlier work

Caf1M-Caf1 complex (from UniProt P26926)
Kd: 2.4 µM
